Laboratory results reported in ChEMBL document CHEMBL4303101, “Identification of inhibitors of SARS-CoV-2 in-vitro cellular toxicity in human (Caco-2) cells using a large scale drug repurposing collection” (2020).

System: SARS-CoV-2
Conditions: Homo sapiens; Caco-2; 10 uM

For COLISTIN SULFATE, the inhibition was 13.7% and 5.96%.

Where “and” joins values, the source holds several entries; their conditions need not be identical. Equal entries are not always repeated.
